Literature values in PMC6086316.

Biological target: IL-1β (Homo sapiens) (UniProt P01584)
Conditions: cited from earlier work

Substance: Caf1A (from UniProt P26949)
- Kd: 0.14 nM
